Laboratory results from US7125541.

Molecular target: human endoglin (human) (UniProt P17813)
Assay: cell-based or functional assay

“TEC-11-dgA immunotoxin (from UniProt P02879 36-302)” was tested, and the inhibition of protein synthesis in confluent HUVEC at 10-8 M was 20%, the inhibition of protein synthesis in quiescent HUVEC at 10-8 M was 10% and the inhibition of protein synthesis in subconfluent HUVEC at 10^-10 M was over 60%.
